Source: US20120107933A1 (GOVERNMENT OF THE UNITED STATES AS REPRESENTED BY THE …, published 2012)

Target: human mesothelin on the cell surface (A431/H9 transfectants and human cancer cell lines) (human) (UniProt Q13421)
Experiment: cell-based or functional assay

## HN2 scFv immunotoxin (HN2 scFv fused to PE38) (from UniProt P11439 278-389; P11439 406-638)
  Cytotoxic Assays (WST), IC50 of cell viability, H226 cells: 0.08 µg/mL
